Assay results taken from US20170233441A1.

Experiments:
BG505 SOSIP.664 [1] = test: BLI
BG505 SOSIP.664 [2] = test: SPR
BG505 SOSIP.664 Trimer = test: SPR; 2G12 capture

How did the Kd (BG505 SOSIP.664 [1]) turn out when b12 was run?
The Kd was > 4 µM.

What about the Kd (BG505 SOSIP.664 [2]) of the same substance?
The Kd was > 1 µM.

Which Kd (BG505 SOSIP.664 [1]) does the source give for VRC26.09 here?
Its Kd is 0.0403 µM.

And the Kd (BG505 SOSIP.664 [2])?
Its Kd is 0.0229 µM.

With 8ANC195 as the substance, how does the Kd (BG505 SOSIP.664 [2]) read?
Its Kd is 0.00954 µM.

Which Kd (BG505 SOSIP.664 [2]) does the source give for PGT128 here?
The Kd was 0.0162 µM.

For PGT145, which Kd (BG505 SOSIP.664 Trimer) is on record?
The Kd was 0.0228 µM.
